Measured values from several laboratories, pooled; numbers as filed in NIAID ChemDB.

Common to all: whole-cell or culture tests; agent: Mycobacterium fortuitum; read-out: MIC

Lines come from different laboratories, so protocols vary. An empty or dashed field is not shown. Two numbers with a dash give a range or band.

SMILES	strain	value
N/C(=N\N=C\c1ccccn1)c1ccccn1	-	>50 µg/mL
CN1CCN(c2cc3c(cc2F)c(=O)c(C(=O)O)cn3-c2ccc(F)cc2)CC1	10 strains	2 µg/mL
CN1CCSC1=[Se]	CA10	100 µg/mL
NC1CCN(c2nc3c(cc2F)c(=O)c(C(=O)O)cn3-c2ccc(F)cc2F)C1	ATCC 6841	4 µg/mL
CC1CN(c2nc3c(cc2F)c(=O)c(C(=O)O)cn3C2CC2)CC(C)N1	ATCC 6841	0.13 µg/mL
N/C(=N\N=C\c1ccccc1OCc1ccccc1)c1ccccn1	-	25–50 µg/mL
CNCC1CCN(c2c(F)cc3c(=O)c(C(=O)O)cn(C4CC4)c3c2Cl)C1	ATCC 6841	≤0.03 µg/mL
N/C(=N\N=C1CCCCCCCCCCC1)c1ccccn1	-	>50 µg/mL
CCN1CCN(c2nc3c(cc2F)c(=O)c(C(=O)O)cn3-c2ccc(F)cc2F)CC1	ATCC 6841	0.25 µg/mL
CC1(C)NC(=S)NC1=S	CA10	>100 µg/mL
N[C@@H]1CONC1=O	-	≥1000 µg/mL
CCNCC1CCN(c2c(F)cc3c(=O)c(C(=O)O)cn(CC)c3c2F)C1	10 strains	≤0.5 µg/mL
CN[C@@H]1[C@H](O)[C@H](NC)[C@H]2O[C@@]3(O)C(=O)C[C@@H](C)O[C@H]3O[C@@H]2[C@H]1O	ATCC 6841	>64 µg/mL
Cn1ccn(C)c1=[Se]	CA10	>100 µg/mL
CCOc1c(N2CC(C)NC(C)C2)c(F)cc2c(=O)c(C(=O)O)cn(C3CC3)c12	ATCC 6841	0.06 µg/mL
CCn1cc(C(=O)O)c(=O)c2cc(F)c(N3CCNCC3)cc21	10 strains	8 µg/mL
CN[C@@H]1[C@@H](O)[C@@H](O[C@@H]2[C@@H](O)[C@H](O[C@H]3O[C@H](CN)CC[C@H]3N)[C@@H](N)C[C@H]2N)OC[C@]1(C)O	ATCC 6841	16 µg/mL